Results reported in patent US20230338478A1 (University of Pennsylvania, published 2023).

Target: T1, yeast-displayed SARS-CoV-2 'Delta 4+' RBD (SARS-CoV-2)
T1 construct: range […]
Test: yeast-displayed RBD, decoy titration, flow cytometry

B1: hAce2-Variant2-IgG1 soluble decoy fusion protein (Fc fusion)
chain: QSTIEEQAKTFLDMFNHKAEDLFYQSSLAAWNYNTNITEENVQNMNNAGDKWSAFLKEQSTFAQMYPLQEIQNPTVKLQLQALQQNGSSVLSEDKSKRLNTILNTMSTIYSTGKVCNPDNPQECLLLEPGLNEIMANSLDYNERLWAWESWRSEVGKQLRPLYEEYVVLKNEMARANHYEDYGDYWRGDYEVNGVDGYDYSRGQLIEDVEHTFEEIKPLYEHLHAYVRAKLMNAYPSYISPIGCLPAHLLGDMWGRFWTNLYSLTVPFGQKPNIDVTDAMVDQAWDAQRIFKEAEKFFVSVGLPNMTQGFWEYSMLTDPGNVQKAVCLPTAWDLGKGDFRILMCTKVTMDDFLTAHHEMGHIQYDMAYAAQPFLLRNGANEGFHEAVGEIMSLSAATPKHLKSIGLLSPDFQEDNETEINFLLKQALTIVGTLPFTYMLEKWRWMVFKGEIPKDQWMKKWWEMKREIVGVVEPVPHDETYCDPASLFHVSNDYSFIRYYTRTLYQFQFQEALCQAAKHEGPLHKCDISNSTEAGQKLFNMLRLGKSEPWTLALENVVGAKNMNVRPLLNYFEPLFTWLKDQNKNSFVGWSTDWSPYAD[gap - human IgG1 Fc]
B1 was tested, and the Kd was 0.07 nM.
